Results of unrelated studies side by side (data: NIAID ChemDB).

Common to all: tests in culture; agent: Candida glabrata

MIC50, MIC90 and the like: level of inhibition, or share of isolates inhibited. ECn is the concentration giving n% inhibition of infection, replication or growth. Lines come from different laboratories, so protocols vary. An empty or dashed field is not shown. Two numbers with a dash give a range or band.

compound,read-out,conditions,method,strain or isolate,result
CNC(=S)N/N=C(\C)c1ccc(-n2ccnc2)cc1,MIC50,-,broth dilution,ATCC 2001,>915 µM
C[C@H](c1ncncc1F)[C@](O)(Cn1cncn1)c1ccc(F)cc1F,MIC80,-,broth dilution,-,0.18 µM
O=[N+]([O-])c1cc(CSc2nnnn2-c2ccc(Cl)c(Cl)c2)cc([N+](=O)[O-])c1,EC80,24 h,broth dilution,20/I,>125 µM
O=C(O)c1ccccc1,EC50,-,-,PYCC 2418,0.05 µM
O=[N+]([O-])c1cc(C[Se]c2nnnn2C2CCCCC2)cc([N+](=O)[O-])c1,EC80,24 h,broth dilution,20/I,>500 µM
Clc1ccc(COC(Cn2ccnc2)c2ccc(Cl)cc2Cl)c(Cl)c1,MIC,-,broth dilution,Clinical isolates,0.03 µg/mL
S=C(N/N=C/c1cnc[nH]1)Nc1ccccc1,MIC50,-,broth dilution,ATCC 2001,>1480 µM
O=[N+]([O-])c1cc(C[Se]c2nnnn2Cc2ccccc2)cc([N+](=O)[O-])c1,EC80,48 h,broth dilution,20/I,>500 µM
S=C(N/N=C/c1ccc(-n2ccnc2)cc1)Nc1ccccc1,MIC50,-,broth dilution,ATCC 2001,>778 µM
O=[N+]([O-])c1cc(CSc2nnnn2Cc2ccccc2)cc([N+](=O)[O-])c1,EC80,24 h,broth dilution,20/I,>500 µM
CC(=O)N/N=C/c1cnc[nH]1,MIC50,-,broth dilution,ATCC 2001,>1643 µM
c1ccc([Se][Se]c2ccccc2)cc1,MIC,-,broth dilution,ATCC 2001,>64 µg/mL
C[C@H]1[C@H](O)[C@@H](C)/C=C/C=C/C=C/C=C/C=C/C=C/C=C/[C@H](O[C@@H]2O[C@H](C)[C@@H](O)[C@H](N)[C@@H]2O)C[C@@H]2O[C@](O)(C[C@@H](O)C[C@@H](O)CC[C@H](O)[C@@H](O)C[C@@H](O)CC(=O)O[C@H]1C)C[C@H](O)[C@H]2C(=O)O,MIC,-,broth dilution,Clinical isolates,0.25 µg/mL
O=Cc1cccc(O)c1O,EC50,-,broth dilution / turbidity,PYCC 2418,<0.01 µM
C[N+]1=CC2C(=O)c3nccc4ccnc(c34)C2C1,MIC80,-,-,-,>64 µg/mL
Cc1ccc(C(C)C)c(O)c1,EC50,-,broth dilution / turbidity,PYCC 2418,0.54 µM
C[C@@H](c1ncncc1F)[C@](O)(Cn1cncn1)c1ccc(F)cc1F,MIC50,-,-,77 isolates,0.5 µg/mL
C/C(=N\NC(=O)c1ccc(Cl)cc1)c1ccc(-n2ccnc2)cc1,MIC50,-,broth dilution,ATCC 2001,1.4 µM
C=CC(C)(O)CCCC=C(C)C,MIC90,-,-,-,0.025–0.031 µg/mL
CC1=CC2C(N)=NC(N)=NC2C=C1c1ccc(N(C)C)c(C#N)c1,MIC,-,broth dilution,ATCC 2001,2 µg/mL
CC[C@@H]([C@H](C)O)n1ncn(-c2ccc(N3CCN(c4ccc(OC[C@@H]5CO[C@@](Cn6cncn6)(c6ccc(F)cc6F)C5)cc4)CC3)cc2)c1=O,MIC,-,broth dilution,Clinical isolates,0.5 µg/mL
COc1cc(C[C@H](C)[C@H](C)Cc2ccc(O)c(O)c2)ccc1O,MIC100,-,broth dilution,CCC 115-2000,125 µg/mL
O=[N+]([O-])c1cc(CSc2cccc[n+]2[O-])cc([N+](=O)[O-])c1,EC80,24 h,broth dilution,20/I,>500 µM
O=C(N/N=C\n1ccnc1)c1ccccc1,MIC50,-,broth dilution,ATCC 2001,<1.2 µM
O=[N+]([O-])c1cc(CSc2nnnn2C2CCCCC2)cc([N+](=O)[O-])c1,EC80,48 h,broth dilution,20/I,>500 µM
O=C(N/N=C/c1ccc(-n2ccnc2)cc1)c1ccc(Cl)cc1,MIC50,-,broth dilution,ATCC 2001,769.8 µM
C[C@H]1[C@H](O)[C@@H](C)/C=C/C=C/C=C/C=C/C=C/C=C/C=C/[C@H](O[C@@H]2O[C@H](C)[C@@H](O)[C@H](N)[C@@H]2O)C[C@@H]2O[C@](O)(C[C@@H](O)C[C@@H](O)CC[C@H](O)[C@@H](O)C[C@@H](O)CC(=O)O[C@H]1C)C[C@H](O)[C@H]2C(=O)O,MIC90,-,-,77 isolates,2 µg/mL
CCCCCCCCC[C@@H](O)[C@H](C)N,MIC,-,-,MTCC 3019,9.9 µM

The last 2 rows once more:

compound | read-out | conditions | method | strain or isolate | result
C[C@H]1[C@H](O)[C@@H](C)/C=C/C=C/C=C/C=C/C=C/C=C/C=C/[C@H](O[C@@H]2O[C@H](C)[C@@H](O)[C@H](N)[C@@H]2O)C[C@@H]2O[C@](O)(C[C@@H](O)C[C@@H](O)CC[C@H](O)[C@@H](O)C[C@@H](O)CC(=O)O[C@H]1C)C[C@H](O)[C@H]2C(=O)O | MIC90 | - | - | 77 isolates | 2 µg/mL
CCCCCCCCC[C@@H](O)[C@H](C)N | MIC | - | - | MTCC 3019 | 9.9 µM